Article PMC12091907 (2025)

Molecular target: TcdB frizzled-binding domain (TcdB-FBD, […]) with His-tag (Clostridioides difficile)
Assay: ELISA

B1: human CD44 extracellular domain (CD44-ECD, amino acids 21-220), labeled with Fc (Fc fusion)
chain: QIDLNITCRFAGVFHVEKNGRYSISRTEAADLCKAFNSTLPTMAQMEKALSIGFETCRYGFIEGHVVIPRIHPNSICAANNTGVYILTSNTSQYDTYCFNASAPPEEDCTSVTDLPNAFDGPITITIVNRDGTRYVQKGEYRTNPEDIYPSNPTDDDVSSGSSSERSSTSGGYIFYTFSTVHPIPDEDSPWITDSTDRIP
Question: For B1, which Kd is on record?
Answer: Its Kd is 82.1 nM.
